Reference: the supplement of paper PMC9931576
Human monoclonal antibodies against the spike receptor-binding domain (heavy:light variable regions). IC50 against pseudoviruses bearing the spike of naturally observed variants; lower = stronger; >10 µg/ml means not reached at the top dose. No active / inactive call. The stated detection limit is 0.0005 µg/ml; values near or below 0.001 µg/ml lie at the floor of the assay.

B1: BD-739 (protein)
chain 1: QVQLVQSGAEVKKPGSSVKVSCKASGGSFGSHAVAWVRQAPGQGLEWMGGLIPVFGTANYAQKFQGRVAIITDESSSTAYMELSSLRSEDTAVYYCARGYFDWVLDNWGQGTLVTVSS
chain 2: EIVLTQSPGTLSLSPGERATLSCRASQSVSSRYLAWYQQKPGQAPRLLIYGVSSRATGIPDRFSGSGSGTDFTLTISRLEPEDFAVYFCQQYGTSQVTFGGGTKVEIK
B2: BD55-998 (protein)
chain 1: QVQLVQSGAELKKPGASVKVSCKASGYTFSGYGISWVRQAPGQGLEWMGWISAYNGDVNYAQTFQGRVTMTTDTSTNTAYMELRSLRSADTAVYYCARDGEQTNWNYVMVEPLFDLWGQGTLVTVSS
chain 2: QSVLTQPPSASGTPGQRVTISCSGSSSNIGSNFVFWYQQLPGAAPKLLIYRNNQRPSGVPDRFSGSKSGTSASLAISGLRSEDEADYYCAAWDDGLSDPYVFGTGTKVTVL
B3: BD55-965 (protein)
chain 1: QVQLVQSGPEVAKPGSSVKVSCQASGDNFSKYSISWVRQAPGQGLEWMGRILPVVGAASSAKKFQGRVTISADKSTSTAYMEMTSLRSEDTAIYYCASAPSPTNPQSHCSGTSCPLDVWGQGTTLIVSS
chain 2: EIVLTQSPGTLSLSPGERATLSCRASQSVNSAYLAWYQQKPGQAPRLLIYGASNRATGIPDRFSVSGSGTDFTLTISRLDPEDFAVYFCQQYHGSPWTFGQGTKV
B4: BD-623 (protein)
chain 1: EVQLVESGGGLVQPGGSLRLSCAASGVTVSSNYMSWVRQAPGKGLEWVSAVYSGGSTYYADSVKGRFTISRHNSKNTLYLQMKSLRPEDTAIYYCARLINHYYDSSGDGGAFDIWGQGTMVTVSS
chain 2: QSALTQPASVSGSPGQSITISCTGTSSDVGSYNLVSWYQQRPGKAPKLILYEVTKRPSGVSNRFSGSKSGNTASLAISGLQAEDEADYYCCSYAGSSTWVFGGGTKLTVL
B5: BD55-603 (protein)
chain 1: EVQLVESGGGLVQPGGSLRLTCAASGFTFSSYWMSWVRQAPGKGLEWVANIKQDGSEKYYVDSVKGRFTISRDNAKNSLYLQMNSLRAEDTAVYYCARGLKEVTAILSEGIDYWGQGTLVTVSS
chain 2: SYELTQPPSVSVSPGQTARITCSGDALPKQYAYWYQQKPGQAPVLVIYKDSERPSGIPERFSGSSSGTTVTLTISEVQAEDEADYYCQSADSSGVVFGGGTKLTVL
B6: BD55-767 (protein)
chain 1: QVQLVQSGAEVKKPGSSVRVSCEVSGGTFNMYTFNWVRQAPGQGLEWMGKIIPILNVVDYPQKFQGRVAITADKSTNTAYMEMSSLRSEDTAMYYCAKDLVSSTSGGFDYWGQGTLVTVSS
chain 2: QSVLTQPPSVSGAPGQRVTISCTGGNSNIGAGYEVHWYQKLPGTAPKLLIYGTTNRPSGVPDRFSGSKSDTSASLAITGLQPEDEADYYCHSYDSSLTGWVFGGGTKVTVL

What follows are binders tested against SARS-CoV-2 Omicron BA.1 spike pseudovirus (assay: pseudovirus neutralization IC50; higher = weaker neutralization).
Method: (§1)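 Single-round VSV luciferase pseudovirus mixed with antibody dilutions for 1 h and put on Huh-7 cells for about a day; IC50 from the dose curve.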

| Binder | pseudovirus neutralization IC50 |
| --- | --- |
| B1 | > 10 µg/mL |
| B2 | > 10 µg/mL |
| B3 | 0.0872 µg/mL |
| B4 | > 10 µg/mL |
| B5 | > 10 µg/mL |
| B6 | 0.0236 µg/mL |

Each binder was assayed against SARS-CoV-2 Omicron BA.2 spike pseudovirus in the same assay as above.
Method: as §1

| Binder | pseudovirus neutralization IC50 |
| --- | --- |
| B1 | > 10 µg/mL |
| B2 | > 10 µg/mL |
| B3 | 0.0455 µg/mL |
| B4 | > 10 µg/mL |
| B5 | > 10 µg/mL |
| B6 | 0.0258 µg/mL |

The binders below were run against SARS-CoV-2 Omicron BA.2.75 spike pseudovirus in the same assay as above.
Method: as §1

| Binder | pseudovirus neutralization IC50 |
| --- | --- |
| B1 | > 10 µg/mL |
| B2 | > 10 µg/mL |
| B3 | 0.0463 µg/mL |
| B4 | > 10 µg/mL |
| B5 | > 10 µg/mL |
| B6 | 0.023 µg/mL |

What follows are binders tested against SARS-CoV-2 Omicron BA.5 spike pseudovirus in the same assay as above.
Method: as §1

| Binder | pseudovirus neutralization IC50 |
| --- | --- |
| B1 | > 10 µg/mL |
| B2 | > 10 µg/mL |
| B3 | > 10 µg/mL |
| B4 | > 10 µg/mL |
| B5 | > 10 µg/mL |
| B6 | 0.936 µg/mL |

Each binder was assayed against SARS-CoV-2 Omicron BQ.1.1 spike pseudovirus in the same assay as above.
Method: as §1

| Binder | pseudovirus neutralization IC50 |
| --- | --- |
| B1 | > 10 µg/mL |
| B2 | > 10 µg/mL |
| B3 | > 10 µg/mL |
| B4 | > 10 µg/mL |
| B5 | > 10 µg/mL |
| B6 | > 10 µg/mL |

What follows are binders tested against SARS-CoV-2 Omicron XBB spike pseudovirus in the same assay as above.
Method: as §1

| Binder | pseudovirus neutralization IC50 |
| --- | --- |
| B1 | > 10 µg/mL |
| B2 | > 10 µg/mL |
| B3 | > 10 µg/mL |
| B4 | > 10 µg/mL |
| B5 | > 10 µg/mL |
| B6 | > 10 µg/mL |

The binders below were run against SARS-CoV-2 early D614G spike pseudovirus in the same assay as above.
Method: as §1

| Binder | pseudovirus neutralization IC50 |
| --- | --- |
| B1 | 0.469 µg/mL |
| B2 | > 10 µg/mL |
| B3 | 0.00165 µg/mL |
| B4 | 0.0017 µg/mL |
| B5 | > 10 µg/mL |
| B6 | 0.101 µg/mL |
